PubChem BioAssay AID1259414, Drosophila RNAi Screening Center – 2018

Screen: 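Genome-wide screen for host control of endosymbiont load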 (primary screen)
Cell system: Drosophila JW18 cells infected with Wolbachia
Knock-down reagent: long dsRNA against Drosophila genes, 0.25 µg dsRNA per well of a 384-well plate
Duration: 5 days
Treatment: cells persistently infected with Wolbachia before knock-down; no added drug
Measurement: 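Automated imaging of bacterial rRNA staining divided by host cell count, reported as plate-normalised robust z-score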
Scale: Wolbachia per cell robust z: higher = more Wolbachia per host cell than the plate typical
Rule for the call: 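Active if absolute robust z reaches 1.5 in two or more of three replicates, leaving out multi- or no-target dsRNAs, genes unexpressed in JW18 and A1 wells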
The screen tested about 24,000 reagents; this is an unselected part of those that have a named target and a result. In the full data, about 1,210 (5%) got an active call. 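Inactive calls also include excluded dsRNAs with several or no targets, genes unexpressed in JW18, and well A1, regardless of score.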 A plus sign joins genes that one reagent is predicted to hit.

Gene,amplicon,"Wolbachia per cell robust z, rep 1","Wolbachia per cell robust z, rep 2","Wolbachia per cell robust z, rep 3",outcome
CG10254,DRSC14153,0.00982,-0.443,-0.176,inactive
CG10254,DRSC29495,-1.5,-1.04,-0.473,inactive
hdly (hadley),DRSC15849,0.982,-0.606,0.616,inactive
bumpel,DRSC16100,0.159,0.618,-0.721,inactive
TwdlQ (TweedleQ),DRSC23107,-1.68,-4.46,-3.31,inactive
TwdlQ (TweedleQ),DRSC27737,1.46,0.215,0.97,inactive
Dbct (Dihydrolipoamide branched chain transacylase E2),DRSC19951,-4.38,-0.846,-0.187,inactive
Dbct (Dihydrolipoamide branched chain transacylase E2),DRSC25764,-1.2,-8.62,-1.43,inactive
CG6912,DRSC16132,-0.731,0.587,-1.89,inactive
CG13144,DRSC02241,-5.05,-0.793,0.136,inactive
Or9a (Odorant receptor 9a),DRSC18692,-0.0377,-3.3,0.0627,inactive
Or9a (Odorant receptor 9a),DRSC28277,-0.465,-2.13,-1.42,inactive
CG33648,DRSC37908,1.26,0.538,0.716,inactive
CG34376,DRSC14696,-1.12,0.0992,-1.13,inactive
CG34376,DRSC14701,0.355,-0.162,-0.623,inactive
CG34376,DRSC24983,-0.126,0.248,0.895,inactive
CG34376,DRSC25207,0.0023,0.347,1.55,inactive
LManII (Lysosomal alpha-mannosidase II),DRSC01986,0.0037,-1.47,-0.444,inactive
ncd (non-claret disjunctional),DRSC17012,1.48,-0.458,0.737,inactive
beta'COP (Coat Protein (coatomer) beta'),DRSC03492,-1.21,1.57,3.98,active
beta'COP (Coat Protein (coatomer) beta'),DRSC26650,1.98,3.24,3.43,active
CG6465,DRSC16046,-0.604,-1.15,-0.908,inactive
CG6465,DRSC25671,-1.12,0.281,-1.61,inactive
CG13376,DRSC17901,0.268,1.07,1.13,inactive
CG33332,DRSC15504,-0.857,-0.704,0.533,inactive
CG33332,DRSC27661,0.635,-1.27,0.314,inactive
CG3955,DRSC06859,-0.833,-0.583,-1.27,inactive
toe (twin of eyg),DRSC09174,0.214,-0.847,-0.369,inactive
toe (twin of eyg),DRSC41280,-0.663,-2.71,0.485,inactive
toe (twin of eyg),DRSC41281,-0.153,-0.657,0.37,inactive
wake (wide awake),DRSC15248,-1.22,-0.385,1.07,inactive
wake (wide awake),DRSC16148,-2.05,0.673,-5.98,inactive
wake (wide awake),DRSC16149,-0.105,0.209,-0.351,inactive
wake (wide awake),DRSC22995,-0.726,0.475,0.334,inactive
wake (wide awake),DRSC25798,0.739,-0.577,-1.01,inactive
wake (wide awake),DRSC29345,-0.307,-0.411,0.0823,inactive
CG13775,DRSC02279,-0.726,-0.0994,-0.429,inactive
CG13775,DRSC29121,-1.2,-0.269,0.242,inactive
CG34231,DRSC38876,-3.53,0.202,0.244,inactive
Paip1 (Poly(A) binding protein interacting protein 1),DRSC07302,0.234,-0.287,0.48,inactive
Paip1 (Poly(A) binding protein interacting protein 1),DRSC23561,0.218,0.845,0.0624,inactive
obe (obelus),DRSC15736,-0.781,0.395,-0.623,inactive
gw (gawky),DRSC17135,0.76,2.79,1.27,inactive
gw (gawky),DRSC17160,2.64,2.61,3.59,active
gw (gawky),DRSC23497,2.12,4.09,4.7,active

Continued, starting with the last 6 of the part before.
Gene,amplicon,"Wolbachia per cell robust z, rep 1","Wolbachia per cell robust z, rep 2","Wolbachia per cell robust z, rep 3",outcome
Paip1 (Poly(A) binding protein interacting protein 1),DRSC07302,0.234,-0.287,0.48,inactive
Paip1 (Poly(A) binding protein interacting protein 1),DRSC23561,0.218,0.845,0.0624,inactive
obe (obelus),DRSC15736,-0.781,0.395,-0.623,inactive
gw (gawky),DRSC17135,0.76,2.79,1.27,inactive
gw (gawky),DRSC17160,2.64,2.61,3.59,active
gw (gawky),DRSC23497,2.12,4.09,4.7,active
CG31253 + CG31131,DRSC13839,0.527,-1.63,-0.45,inactive
CG15432,DRSC00447,-2.69,0.28,-3.06,active
CG15432,DRSC23618,0.461,-0.00514,1.42,inactive
CG43777 + CG43776 + CG43775,DRSC04206,0.233,0.545,0.163,inactive
NimB4 (Nimrod B4),DRSC01884,0.756,0.583,0.0123,inactive
NimB4 (Nimrod B4),DRSC24265,-1.47,-1.15,-0.15,inactive
Doc1 (Dorsocross1),DRSC11146,-0.695,-1.03,0.063,inactive
Doc1 (Dorsocross1),DRSC25859,0.826,0.126,1.41,inactive
Cep135 (Centrosomal protein 135kDa),DRSC09345,0.26,-0.788,-0.363,inactive
Cep135 (Centrosomal protein 135kDa),DRSC10244,-1.39,-0.794,-0.437,inactive
aus (argus),DRSC13471,-4.3,0.117,0.693,inactive
aus (argus),DRSC13473,0.24,0.737,0.63,inactive
aus (argus),DRSC15157,-11.7,-7.67,0.0564,active
aus (argus),DRSC26783,-0.718,0.806,0.387,inactive
CG34433,DRSC15077,-0.238,0.984,0.04,inactive
baf (barrier to autointegration factor),DRSC03051,1.56,-0.12,0.374,inactive
baf (barrier to autointegration factor),DRSC26974,0.328,-0.83,0.673,inactive
Pglym87 (Phosphoglyceromutase 87),DRSC15252,-6.62,-6.89,-0.859,inactive
Pglym87 (Phosphoglyceromutase 87),DRSC26066,2.3,0.365,0.694,inactive
CG33511,DRSC37783,-0.124,-0.968,0.42,inactive
dnt (doughnut on 2),DRSC03522,-0.611,-0.748,0.978,inactive
dnt (doughnut on 2),DRSC25886,0.4,-0.167,-0.0976,inactive
CG15927,DRSC19742,0.735,-1.42,0.715,inactive
CG15927,DRSC28678,-1.51,0.595,-0.339,inactive
